Vif 1203: effect of single changes on growth against APOBEC3G

Vif of 1203 (a subtype B primary isolate), residues 12-115; positions count from the first residue of the whole protein:
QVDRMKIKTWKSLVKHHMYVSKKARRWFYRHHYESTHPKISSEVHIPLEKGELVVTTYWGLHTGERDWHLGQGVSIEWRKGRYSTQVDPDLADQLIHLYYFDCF

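Pooled viruses with one designed change each in Vif went through two 72 h rounds in SupT1 cells expressing APOBEC3G. Each of three replicates was sequenced after round two and set against the merged round-one pool. Changes do not touch integrase, since the pol overlap was removed.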

Scale: log2 enrichment, wild type = 0; negative values mean that the variant was depleted. A change reads original residue, position, new residue. This list holds changes to tyrosine only. The median of three replicates is given. Input reads are the counts in the merged round-one pool, before selection. Some changes are missing from the data or left out. The authors note that some positive scores may be noise, and some enriched variants failed when tested singly. Replicates agree only moderately (rank correlation about 0.4-0.65); scores from under about 50 input reads tend to be too high.

Q12Y (input reads 268) gave -1.45.
D14Y (input reads 220) gave -0.99.
R15Y (input reads 989) gave -0.67.
K17Y (input reads 117) gave 0.58.
I18Y (input reads 30) gave 0.15.
K19Y (input reads 22) gave 0.26.
K22Y (input reads 430) gave -2.25.
S23Y (input reads 2055) gave -0.23.
H27Y (input reads 287) gave -2.35.
K33Y (input reads 227) gave -1.84.
K34Y (input reads 19) gave -0.55.
R36Y (input reads 177) gave 0.40.
W38Y (input reads 803) gave 0.94.
R41Y (input reads 17) gave 0.17.
H42Y (input reads 239) gave -1.48.
H43Y (input reads 20) gave -0.47.
H48Y (input reads 314) gave 1.17.
S52Y (input reads 108) gave -1.62.
V55Y (input reads 173) gave -2.66.
H56Y (input reads 22) gave 0.94.
I57Y (input reads 28) gave -0.05.
L59Y (input reads 2689) gave -2.32.
W70Y (input reads 389) gave -2.39.
G71Y (input reads 398) gave -2.53.
E76Y (input reads 19) gave 1.38.
D78Y (input reads 51) gave 0.91.
W79Y (input reads 16) gave 1.39.
G84Y (input reads 509) gave -1.91.
V85Y (input reads 423) gave -1.91.
S86Y (input reads 1051) gave -1.72.
R90Y (input reads 105) gave -4.76.
D99Y (input reads 76) gave -0.84.
D101Y (input reads 153) gave -1.57.
D104Y (input reads 79) gave -0.79.
Q105Y (input reads 1092) gave -2.59.
L106Y (input reads 233) gave -2.06.
I107Y (input reads 176) gave -1.39.
L109Y (input reads 313) gave -2.97.
D113Y (input reads 269) gave -0.86.
C114Y (input reads 198) gave -2.22.

4 of these entries, quoted again:

mutation,input reads,median log2 enrichment
H42Y,239,-1.48
R15Y,989,-0.67
W79Y,16,1.39
L109Y,313,-2.97

Reference: Langley et al. 2025, preprint, doi:10.1101/2025.10.20.683452.